System: 3T3-L1 adipocytes
Experiment: Glucose uptake assay
Format: cell-based
Conditions: for % Activation, Average: average of two experiments; for % Activation, First: first experiment; for % Activation, Second: second experiment
Protocol: Study Protocol • 1. 3T3-L1 fibroblasts were cultured in DMEM containing 25 mM glucose and 10% bovine calf serum at 37 °C with 5% CO2. • 2. 3T3-L1 fibroblasts were differentiated into adipocytes 2 days post confluent with the same DMEM medium containing 1 ug/ml insulin (Sigma-Aldrich), 1 uM dexamethasone (Sigma-Aldrich), and 0.5 mM isobutyl-1-methylxanthine (Sigma-Aldrich). • 3. Media were replaced with DMEM containing 10% FBS and 1 ug/ml insulin and culture 2 days. • 4. Seed 1×10^5 3T3-L1 adipocytes to 96 wells cell culture plate (DMEM, 10% FBS, 1% PS, 1 ug/ml insulin) • 5. Before experiments, adipocytes were incubated in serum free medium for starvation overnight. • 6. Dilute each sample 100 folds (2 ul primal solution to 198 ul buffer) in corresponding buffer. Add 2 ul of sample primal solution, 100 folds diluted solution and buffer to 198 ul KRPH buffer. • 7. 3T3-L1 adipocytes were washed with KRPH buffer (5 mM Na2HPO4, 20 mM HEPES, pH 7.4, 1 mM MgSO4.1 mM CaCl2, 136 mM NaCl, […], and 1% BSA) three times, Add 90 ul/well KRPH containing human insulin and samples to assay plate, incubate for 30 min at 37[…] and 5% CO2. • 8. Add 10 ul KRPH containing 0.25 uCi 1-[3H]-2-deoxyglucose/well and 50 umol/l 2-deoxyglucose and Incubate 10 min in 95% air/5% CO2 at 37[…] • 9. The transport was stopped by rinsing the cells with cold PBS containing 10 mM glucose for three times. • 10. The adipocytes were lysed in 50 ul 10% KOH for 5 min • 11. Then the aliquots were subjected to scintillation counting using TriCap.

B1: AFOD RAAS 108: from A1AT from fraction IV (protein, UniProt P01009 25-418, looked up)
Alpha-1-antitrypsin: EDPQGDAAQKTDTSHHDQDHPTFNKITPNLAEFAFSLYRQLAHQSNSTNIFFSPVSIATAFAMLSLGTKADTHDEILEGLNFNLTEIPEAQIHEGFQELLRTLNQPDSQLQLTTGNGLFLSEGLKLVDKFLEDVKKLYHSEAFTVNFGDTEEAKKQINDYVEKGTQGKIVDLVKELDRDTVFALVNYIFFKGKWERPFEVKDTEEEDFHVDQVTTVKVPMMKRLGMFNIQHCKKLSSWVLLMKYLGNATAIFFLPDEGKLQHLENELTHDIITKFLENEDRRSASLHLPKLSITGTYDLKSVLGQLGITKVFSNGADLSGVTEEAPLKLSKAVHKAVLTIDEKGTEAAGAMFLEAIPMSIPPEVKFNKPFVFLMIEQNTKSPLFMGKVVNPTQK
% Activation, Average (sample at 0.0005%): 7.8% | % Activation, First (sample at 0.0005%): 4.15% | % Activation, Second (sample at 0.0005%): 11.49% | % Activation, Average (sample at 0.05%): 30.3% | % Activation, First (sample at 0.05%): 23.16% | % Activation, Second (sample at 0.05%): 37.37%
